Test results published in PMC3466378 (Journal of immunology (Baltimore, Md. : 1950), 2012).

Molecular target: HLA-DR1 (Homo sapiens, UniProt P01903+P01911, A100R/D57E/F55L/F60I/F76Y/I96L/L162R/M171V/P40L/Q125E/R42F/V115G/Y59C)
Assay: biochemical
Assay type: binding

`CC[C@H](C)[C@H](NC(=O)CNC(=O)[C@@H](NC(=O)[C@@H]1CCCN1C(=O)[C@@H](N)[C@@H](C)O)[C@@H](C)CC)C(=O)N[C@H](C(=O)N[C@@H](CO)C(=O)N[C@@H](C)C(=O)N[C@@H](CCC(N)=O)C(=O)N[C@H](C(=O)N[C@@H](CC(C)C)C(=O)N[C@@H](CO)C(=O)N[C@@H](CCC(=O)O)C(=O)N[C@@H](CCCCN)C(=O)N[C@@H](Cc1ccccc1)C(=O)O)C(C)C)[C@@H](C)CC` [J6R (924–938)] showed an IC50 of 0.021 µM.
